Earlier results in patent publication US20240115678A1, “PERSONALIZED […] CANCER THERAPY” (priority 2022, published 2024).

System: M2 cells cultured with EGFR-positive tumor cells
Settings: tumor cells loaded with low concentrations of cetuximab

cetuximab: anti-epidermal growth factor receptor (EGFR) monoclonal antibody
IL-10 and VEGF production: further augmentation
